In patent US20070265201A1, “INHIBITORS OF INFLAMMATORY CYTOKINE TRANSCRIPTION DERIVED FROM HCMV PROTEIN IE2” (priority 2005, published 2007):

System: HeLa-S3 cells
Test: Localization of GFP-IE2 fragment fusion protein after transfection
Type: cell-based
Conditions: 24 hours post transfection, HeLa-S3, FIG. 4A

## GFP-IE2 291-343 (SSHHGRGGFGGAASSSLLSCGHQSSGGASTGPRKKKSKRISELDNEKVRNIMK; left off: large carriers)
  subcellular localization of GFP fusion protein: both cytoplasmic and nuclear localization
